Anti-infective test results gathered from many reports (values: NIAID ChemDB through PubChem).

All rows: host cell toxicity; cell line: MT-4; endpoint: CC50

An empty or dashed field is not shown. Conditions beyond the fields shown may differ between rows. CCn: concentration that lowers growth or viability of the cells by n%.

compound,method,value
S=C(NCc1ccco1)Nc1cccc(Br)c1,MTT,38.2 µM
Cc1cc(C)cc(C(=O)c2c(C(C)C)c(=O)[nH]c(=O)n2Cc2ccccc2C#N)c1,MTT,>100 µg/mL
S=C(Nc1ccccc1Br)NC1CCN(Cc2ccccc2)CC1,MTT,58 µM
CC[C@@H](NS(=O)(=O)c1ccc(Cl)cc1)c1n[nH]c(=S)o1,,125 µg/mL
CC(C)c1c(C(=O)c2cc(Cl)cc(Cl)c2)n(Cc2ccncc2)c(=O)[nH]c1=O,MTT,11.28 µg/mL
Cc1cc(C)cc(Sc2c(C(C)C)c(=O)[nH]c(=O)n2Cc2nc3ccccc3o2)c1,MTT,>100 µg/mL
O=C1/C(=C\c2ccc(Cl)cc2Cl)N(CCc2cccs2)C(=S)N1CCc1cccs1,MTT / turbidity,67.9 µg/mL
CCOC(=O)c1cccn1S(=O)(=O)c1cc(Cl)ccc1NC(=O)c1ccc(Cl)cc1,,>200 µM
O=C1/C(=C\c2ccc([N+](=O)[O-])cc2)N(CCc2cccs2)C(=S)N1CCc1cccs1,MTT / turbidity,85.1 µg/mL
O=S(=O)(NCCCc1n[nH]c(=S)o1)c1ccc(Cl)cc1,,70 µg/mL
c1cnc2cc3n[nH]nc3cc2c1,MTT,>100 µM
CN(C(=S)NCCc1ccccc1)c1nccs1,,65 µM
CC(C)CC(=O)N1C[C@@H](O)[C@@H](Cc2ccccc2)N(Cc2ccc(N)cc2)C(=O)N1Cc1ccc(N)cc1,,77.1 µM
CCOC(=O)c1cccn1S(=O)(=O)c1cc(Cl)ccc1NC(=O)Oc1ccc(C)cc1,,>200 µM
Cc1cc(C)cc(Oc2c(C(C)C)c(=O)[nH]c(=O)n2Cc2cc(C(F)(F)F)cc(C(F)(F)F)c2)c1,MTT,>100 µg/mL
CCOn1nnc2c1Cc1cccnc1C2,MTT,>100 µM
CCc1c(C(=O)c2cc(C)cc(C)c2)n(Cc2cccnc2)c(=O)[nH]c1=O,MTT,18.7 µg/mL
COc1ccc(-c2nnc(-c3ccc(N)cc3)o2)cc1,,99 µg/mL
Cc1cc(C)cc(C(=O)c2c(C(C)C)c(=O)[nH]c(=O)n2Cc2ccnc(Cl)c2)c1,MTT,17.1 µg/mL
CN1C(=O)c2cccn2S(=O)(=O)c2cc(Cl)ccc21,,>200 µM
O=C1/C(=C\c2ccc(F)cc2)N(CCc2cccs2)C(=S)N1CCc1cccs1,MTT,>93.1 µg/mL
COc1ccc(/C=C/C(=O)c2c(O)c3c(C)ccc(C(C)C)c3oc2=O)cc1,,82.7 µg/mL
CCCN1C(=O)N(CCC)N(C(=O)C(C)C)C[C@@H](O)[C@H]1Cc1ccccc1,,>100 µM
COc1ccc(S(=O)(=O)NCCCc2n[nH]c(=S)o2)cc1,,110 µg/mL
CC(C)CC(=O)N1C[C@@H](O)[C@@H](Cc2ccccc2)N(Cc2ccc(O)cc2)C(=O)N1Cc1ccc(O)cc1,,56.2 µM
Cc1cc2oc(=O)c(C(=O)/C=C/c3ccccc3)c(O)c2cc1Cl,,8.56 µg/mL
S=C(Nc1cccc(Cl)c1)NC1CCN(Cc2ccccc2)CC1,MTT,28 µM
Cc1cn([C@H]2C[C@H](N=[N+]=[N-])[C@@H](CO)O2)c(=O)[nH]c1=O,MTT,42.9 µg/mL
Cc1ccc(S(=O)(=O)c2c(C(=O)NNCCO)[nH]c3ccc(Cl)cc23)cc1,MTT,>100 µM
CCc1c(C(=O)c2cc(C)cc(F)c2)n(Cc2ccncc2)c(=O)[nH]c1=O,MTT,51.7 µg/mL
O=C1/C(=C\c2ccccc2[N+](=O)[O-])N(CCc2cccs2)C(=S)N1CCc1cccs1,MTT,67.78 µg/mL
Cc1ccc(C(C)C)c2oc(=O)c(C(=O)/C=C/c3ccccc3)c(O)c12,,12.75 µg/mL
Cc1cc(C)cc(Sc2c(C(C)C)c(=O)[nH]c(=O)n2Cc2ccccc2C#N)c1,MTT,>100 µg/mL
FC(F)(F)c1csc(NC(=S)NCCc2ccccc2)n1,,9 µM
CCOC(=O)c1cccn1S(=O)(=O)c1cccc(NC=O)c1,,>200 µM
CCc1c(Oc2cc(C)cc(C)c2)n(Cc2ccc(OC(F)(F)F)cc2)c(=O)[nH]c1=O,MTT,>100 µg/mL
CC(C)CC(=O)N1C[C@@H](O)[C@@H](Cc2ccccc2)N(Cc2cccc(N)c2)C(=O)N1Cc1cccc(N)c1,,59.5 µM
Cc1ccnc2c1NC(=O)c1cccnc1N2C1CC1,MTT,4 µg/mL
Fc1ccccc1NC(=S)NCc1ccco1,MTT,100 µM
COc1ccc(CCNC(=S)Nc2nccs2)cc1,,68 µM
Cc1cc(CF)cc(C(=O)c2c(C(C)C)c(=O)[nH]c(=O)n2Cc2ccncc2)c1,MTT,92.8 µg/mL
Cc1ccc(S(=O)(=O)c2c(C(=O)NCCO)[nH]c3ccc(Cl)cc23)cc1,MTT,>100 µM
CCc1c(C(=O)c2cc(C)cc(C)c2)n(Cc2ccnc(Cl)c2)c(=O)[nH]c1=O,MTT,8.7 µg/mL
O=C(c1ccco1)N1C[C@@H](O)[C@@H](Cc2ccccc2)N(Cc2ccc(O)cc2)C(=O)N1Cc1ccc(O)cc1,,17.3 µM
Cc1ccccc1S(=O)(=O)c1c(C(=O)NNCCO)[nH]c2ccc(Cl)cc12,MTT,>100 µM
CCc1c(C(=O)c2cc(C)cc(CF)c2)n(Cc2ccncc2)c(=O)[nH]c1=O,MTT,52.1 µg/mL
S=C(NCCc1cccnc1)Nc1nccs1,,83 µM
Cc1ccc(C(C)C)c2oc(=O)c(C(=O)/C=C/c3ccc(N(C)C)cc3)c(O)c12,,106 µg/mL
Cc1cc(C)cc(Oc2c(C(C)C)c(=O)[nH]c(=O)n2Cc2ccccn2)c1,MTT,>100 µg/mL
Cc1cc(C)cc(Sc2c(C(=O)NNCCO)[nH]c3ccc(Cl)cc23)c1,MTT,45 µM

The first 4 rows once more:

compound | method | value
S=C(NCc1ccco1)Nc1cccc(Br)c1 | MTT | 38.2 µM
Cc1cc(C)cc(C(=O)c2c(C(C)C)c(=O)[nH]c(=O)n2Cc2ccccc2C#N)c1 | MTT | >100 µg/mL
S=C(Nc1ccccc1Br)NC1CCN(Cc2ccccc2)CC1 | MTT | 58 µM
CC[C@@H](NS(=O)(=O)c1ccc(Cl)cc1)c1n[nH]c(=S)o1 |  | 125 µg/mL